Measured values taken from patent US10689340B2, “Substituted indoline derivatives as dengue viral replication inhibitors” (priority 2016, dated 2020).

The molecules below were run on DENV-2 16681 strain (assay: DENV-2 antiviral assay (eGFP fluorescence)). Conditions: SI=CC50/EC50, DENV-2 antiviral assay.
Format: cell-based, Dengue virus
Protocol: The antiviral activity of all the compounds of the invention was tested against the DENV-2 16681 strain which was labeled with enhanced green fluorescent protein (eGPF). The culture medium consists of minimal essential medium supplemented with 2% of heat-inactivated fetal calf serum, 0.04% gentamycin (50 mg/mL) and 2 mM of L-glutamine. Vero cells, obtained from ECACC, were suspended in culture medium and 25 μL was added to 384-well plates (2500 cells/well), which already contain the antiviral compounds. Typically, these plates contain a 5-fold serial dilution of 9 dilution steps of the test compound at 200 times the final concentration in 100% DMSO (200 nL). […] Finally, each plate contains wells which are assigned as virus controls (containing cells and virus in the absence of compound), cell controls (containing cells in the absence of virus and compound) and medium controls (containing medium in the absence of cells, virus and compounds). To the wells assigned as medium control, 25 μL of culture medium was added instead of Vero cells. Once the cells were added to the plates, the plates were incubated for 30 minutes at room temperature to allow the cells to distribute evenly within the wells. Next, the plates were incubated in a fully humidified incubator (37° C., 5% CO2) until the next day. Then, DENV-2 strain 16681, labeled with eGFP, was added at a multiplicity of infection (MOI) of 0.5. Therefore, 15 μL of virus suspension was added to all the wells containing test compound and to the wells assigned as virus control. In parallel, 15 μL of culture medium was added to the medium and cell controls. Next, the plates were incubated for 3 days in a fully humidified incubator (37° C., 5% CO2). At the day of the read out, the eGFP fluorescence was measured using an automated fluorescence microscope at 488 nm (blue laser). Using an in-house LIMS system, inhibition dose response curves for each compound were calculated and the half maximal effective concentration (EC50) was determined. Therefore, the percent inhibition (I) for every test concentration is calculated using the following formula: I=100*(ST-SCC)/(SVC-SCC); ST, SCC and SVC are the amount of eGFP signal in the test compound, cell control and virus control wells, respectively. The EC50, represents the concentration of a compound at which the virus replication is inhibited with 50%, as measured by a 50% reduction of the eGFP fluorescent intensity compared to the virus control. The EC50 is calculated using linear interpolation (Table 1).

`COc1cc(NC(C(=O)N2CCc3ccc(C(F)(F)F)cc32)c2ccc(F)cc2)cc(OCCCC(=O)O)c1` (racemic) [Compound 1, 4-(3-((1-(4-fluorophenyl)-2-oxo-2-(6-(trifluoromethyl)-indolin-1-yl)ethyl)amino)-5-methoxyphenoxy)butanoic acid] was tested. Which SI did it give?
The SI was greater than 12022.

For `COc1cc(NC(C(=O)N2CCc3ccc(OC(F)(F)F)cc32)c2ccc(F)cc2)cc(OCCCC(=O)O)c1` (racemic) [Compound 2, 4-(3-((1-(4-fluorophenyl)-2-oxo-2-(6-(trifluoromethoxy)indolin-1-yl)ethyl)amino)-5-methoxyphenoxy)butanoic acid], which SI is on record?
The SI was 22200.

For `COc1cc(NC(C(=O)N2CCc3ccc(C(F)(F)F)cc32)c2ccc(Cl)cc2)cc(OCCCC(=O)O)c1` (racemic) [Compound 3, 4-(3-((1-(4-chlorophenyl)-2-oxo-2-(6-(trifluoromethyl)indolin-1-yl)ethyl)amino)-5-methoxyphenoxy)butanoic acid], which SI is on record?
The SI was 20300.

Which SI does the source give for `COc1cc(NC(C(=O)N2CCc3ccc(OC(F)(F)F)cc32)c2ccc(Cl)cc2)cc(OCCCC(=O)O)c1` (racemic) [Compound 4, 4-(3-((1-(4-chlorophenyl)-2-oxo-2-(6-(trifluoromethoxy)indolin-1-yl)ethyl)amino)-5-methoxyphenoxy)butanoic acid] here?
The SI was greater than 46100.

`COc1cc(NC(C(=O)N2CCc3cc(OC)c(C(F)(F)F)cc32)c2ccc(Cl)cc2)cc(OCCCC(=O)O)c1` (racemic) [Compound 5, 4-(3-((1-(4-chlorophenyl)-2-(5-methoxy-6-(trifluoromethyl)indolin-1-yl)-2-oxoethyl)amino)-5-methoxyphenoxy)butanoic Acid] was tested. Which SI did it give?
Its SI is 26000.

`COc1cc(NC(C(=O)N2CCc3ccc(C(F)(F)F)cc32)c2ccc(Cl)cc2OC)cc(OCCCC(=O)O)c1` (racemic) [Compound 6, 4-(3-((1-(4-chloro-2-methoxyphenyl)-2-oxo-2-(6-(trifluoro-methyl)indolin-1-yl)ethyl)amino)-5-methoxyphenoxy)butanoic acid] was tested. Which SI did it give?
The SI was 32100.

How did the SI turn out when `COc1cc(NC(C(=O)N2CCc3cc(OC)c(C(F)(F)F)cc32)c2ccc(Cl)cc2OC)cc(OCCCC(=O)O)c1` (racemic) [Compound 7, 4-(3-((1-(4-chloro-2-methoxyphenyl)-2-(5-methoxy-6-(trifluoromethyl)indolin-1-yl)-2-oxoethyl)amino)-5-methoxyphenoxy)butanoic acid] was run?
The SI was 24500.

`COc1cc(NC(C(=O)N2CCc3ccc(OC(F)(F)F)cc32)c2ccc(Cl)cc2OC)cc(OCCCC(=O)O)c1` (racemic) [Compound 8, 4-(3-((1-(4-chloro-2-methoxyphenyl)-2-oxo-2-(6-(trifluoro-methoxy)indolin-1-yl)ethyl)amino)-5-methoxyphenoxy)butanoic acid] was tested. Which SI did it give?
Its SI is 112292.

`COc1cc(NC(C(=O)N2CCc3ccc(C(F)(F)F)cc32)c2ccc(Cl)cc2F)cc(OCCCC(=O)O)c1` (racemic) [Compound 9, 4-(3-((1-(4-chloro-2-fluorophenyl)-2-oxo-2-(6-(trifluoromethyl)indolin-1-yl)ethyl)amino)-5-methoxy-phenoxy)butanoic acid] was tested. Which SI did it give?
The SI was 12700.

How did the SI turn out when `COc1cc(NC(C(=O)N2CCc3ccc(OC(F)(F)F)cc32)c2ccc(Cl)cc2F)cc(OCCCC(=O)O)c1` (racemic) [Compound 10, 4-(3-((1-(4-chloro-2-fluorophenyl)-2-oxo-2-(6-(trifluoromethoxy)indolin-1-yl)ethyl)amino)-5-methoxy-phenoxy)butanoic acid] was run?
The SI was 44300.

For `COc1cc(NC(C(=O)N2CCc3cc(OC)c(C(F)(F)F)cc32)c2ccc(Cl)cc2F)cc(OCCCC(=O)O)c1` (racemic) [Compound 11, 4-(3-((1-(4-chloro-2-fluorophenyl)-2-(5-methoxy-6-(trifluoromethyl)indolin-1-yl)-2-oxoethyl)amino)-5-methoxyphenoxy)butanoic acid], which SI is on record?
Its SI is 20600.

For `COc1cc(NC(C(=O)N2CCc3cc(OC)c(OC(F)(F)F)cc32)c2ccc(Cl)cc2)cc(OCCCC(=O)O)c1` (racemic) [Compound 12, 4-(3-((1-(4-chlorophenyl)-2-(5-methoxy-6-(trifluoro-methoxy)indolin-1-yl)-2-oxoethyl)amino)-5-methoxyphenoxy)butanoic acid], which SI is on record?
The SI was 17700.

For `COc1cc(NC(C(=O)N2CCc3ccc(C(F)(F)F)cc32)c2ccc(F)cc2)cc(OCCCC(=O)O)c1` (single isomer, unassigned) [Compound 1A], which SI is on record?
The SI was greater than 76.

For `COc1cc(NC(C(=O)N2CCc3ccc(OC(F)(F)F)cc32)c2ccc(F)cc2)cc(OCCCC(=O)O)c1` (single isomer, unassigned) [Compound 2A], which SI is on record?
Its SI is 248.

Which SI does the source give for `COc1cc(NC(C(=O)N2CCc3ccc(C(F)(F)F)cc32)c2ccc(Cl)cc2)cc(OCCCC(=O)O)c1` (single isomer, unassigned) [Compound 3A] here?
The SI was 3200.

With `COc1cc(NC(C(=O)N2CCc3ccc(OC(F)(F)F)cc32)c2ccc(Cl)cc2)cc(OCCCC(=O)O)c1` (single isomer, unassigned) [Compound 4A] as the molecule, how does the SI read?
The SI was 345.

`COc1cc(NC(C(=O)N2CCc3cc(OC)c(C(F)(F)F)cc32)c2ccc(Cl)cc2)cc(OCCCC(=O)O)c1` (single isomer, unassigned) [Compound 5A] was tested. Which SI did it give?
Its SI is 625.

`COc1cc(NC(C(=O)N2CCc3ccc(C(F)(F)F)cc32)c2ccc(Cl)cc2OC)cc(OCCCC(=O)O)c1` (single isomer, unassigned) [Compound 6A] was tested. Which SI did it give?
Its SI is 527.

Which SI does the source give for `COc1cc(NC(C(=O)N2CCc3cc(OC)c(C(F)(F)F)cc32)c2ccc(Cl)cc2OC)cc(OCCCC(=O)O)c1` (single isomer, unassigned) [Compound 7A] here?
The SI was 508.

With `COc1cc(NC(C(=O)N2CCc3ccc(OC(F)(F)F)cc32)c2ccc(Cl)cc2OC)cc(OCCCC(=O)O)c1` (single isomer, unassigned) [Compound 8A] as the molecule, how does the SI read?
The SI was 43.

How did the SI turn out when `COc1cc(NC(C(=O)N2CCc3ccc(C(F)(F)F)cc32)c2ccc(Cl)cc2F)cc(OCCCC(=O)O)c1` (single isomer, unassigned) [Compound 9A] was run?
Its SI is 392.

With `COc1cc(NC(C(=O)N2CCc3ccc(OC(F)(F)F)cc32)c2ccc(Cl)cc2F)cc(OCCCC(=O)O)c1` (single isomer, unassigned) [Compound 10B] as the molecule, how does the SI read?
Its SI is 1620.

With `COc1cc(NC(C(=O)N2CCc3cc(OC)c(C(F)(F)F)cc32)c2ccc(Cl)cc2F)cc(OCCCC(=O)O)c1` (single isomer, unassigned) [Compound 11A] as the molecule, how does the SI read?
The SI was 837.

Which SI does the source give for `COc1cc(NC(C(=O)N2CCc3cc(OC)c(OC(F)(F)F)cc32)c2ccc(Cl)cc2)cc(OCCCC(=O)O)c1` (single isomer, unassigned) [Compound 12A] here?
Its SI is 32.
